Results of unrelated studies side by side (data: NIAID ChemDB).

Common to all: whole-cell or culture tests; species: Human cytomegalovirus

Blank or dashed fields: not listed here.

| structure | cell line | measure | method | strain | value |
|---|---|---|---|---|---|
| Nc1nc2c(ncn2COC(CO)CO)c(=O)[nH]1 | HFF | EC50 | virus yield | TOWNE | <4 µM |
| OC[C@H]1O[C@@H](n2c(Br)nc3cc(Cl)c(Cl)cc32)[C@H](O)[C@@H]1O |  | EC95 | virus yield | D10 (D341E) | 2 µM |
| Nc1nc2c(ncn2C=C2CC2CO)c(=O)[nH]1 |  | EC50 | plaque count | VR5120 (ganciclovir-resistant) | 2.2 µM |
| CC(C)Nc1nc2cc(Cl)c(Cl)cc2n1[C@H]1O[C@@H](CO)[C@H](O)[C@@H]1O | MRC-5 | EC50 | hybridisation | C8303 | 0.09 µM |
| O=C(O)P(=O)(O)O |  | EC50 | plaque count | 1117 3-1-2 (CDV-resistant) | 52 µM |
| CN(C)c1cccc2c(S(=O)(=O)Nc3ccc(NC(=O)C(C)(C)CO)cc3)cccc12 | HFF | EC90 | virus yield | AD169 | 0.7 µM |
| CCCCCCCC/C=C\CCCCCCCOCCCOP(=O)(O)CO[C@H](CO)Cn1ccc(N)nc1=O | HFF | EC50 | plaque count | C8914-6 | 0.03 µM |
| O=C(NCc1ccc(Cl)cc1)c1c[nH]c2c(F)cc(CCCO)cc2c1=O |  | EC50 | plaque count | DAVIS | 1.2 µM |
| Nc1ccn(C[C@@H](CO)OCP(=O)(O)O)c(=O)n1 | MRC-5 | EC50 | plaque count | C9209/1-4-4 drug-resistant mutant | 2.3 µM |
| Nc1nc2c(ncn2COC(CO)CO)c(=O)[nH]1 | HFF | EC50 | plaque count | Toledo | 6.9 µM |
| CC(C)Nc1nc2cc(Cl)c(Cl)cc2n1[C@H]1O[C@@H](CO)[C@H](O)[C@@H]1O | HFF | EC50 | plaque count | D10 (BDCRB-resistant) | 72 µM |
| CCCCCCCCCCCCCCCCOP(=O)(O)CO[C@H](CO)Cn1ccc(N)nc1=O | HFF | EC50 | plaque count | GDGrP53 | 0.06 µM |
| OC[C@H]1O[C@@H](n2c(Br)nc3cc(Cl)c(Cl)cc32)[C@H](O)[C@@H]1O | MRC-5 | EC50 | hybridisation | AD169 | 0.54 µM |
| CCCCCCCCCCCCCCCCCCOC[C@H](COP(=O)(O)CO[C@H](CO)Cn1ccc(N)nc1=O)OCc1ccccc1 | HFF | EC50 | plaque count | VR4760 (foscarnet-resistant) | 0.001 µM |
| CCCCCCCCCCCCCCCCOCCCOP(=O)(O)CO[C@H](CO)Cn1ccc(N)nc1=O | MRC-5 | EC50 | plaque count | Coffman | 0.001 µM |
| O=C(NCc1ccc(Cl)cc1)c1c[nH]c2ccc(C#CCO)cc2c1=O |  | EC50 | virus yield | DAVIS | <4.7 µM |
| OC[C@H]1O[C@@H](n2c(Br)nc3cc(Cl)c(Cl)cc32)[C@H](O)[C@@H]1O | HFF | EC50 | plaque count | D10 (BDCRB- and maribavir-resistant) | 11.8 µM |
| CCCCCCCCCCCCCCCCCCOCCOP(=O)(O)CO[C@H](CO)Cn1ccc(N)nc1=O | MRC-5 | EC50 | plaque count | C8914-6 drug-resistant mutant | 0.001 µM |
| Nc1ccn(C[C@@H](CO)OCP(=O)(O)O)c(=O)n1 | HEL | EC50 | plaque count | Foscarnet-resistant | 0.28 µM |
| O=C(NCc1ccc(Cl)cc1)c1c[nH]c2c(F)cccc2c1=O |  | EC50 | plaque count | SCH | 14 µM |
| CCCCCCCC/C=C\CCCCCCCCOCCOP(=O)(O)CO[C@H](CO)Cn1ccc(N)nc1=O | HFF | EC50 | plaque count | VR4760 (foscarnet-resistant) | 0.01 µM |
| Nc1nc2c(ncn2COC(CO)CO)c(=O)[nH]1 |  | EC50 | plaque count | TOWNE | 10.8 µM |
| COc1cccc(N2CCN(C3=Nc4c(F)cccc4[C@H](CC(=O)O)N3c3cc(C(F)(F)F)ccc3OC)CC2)c1 |  | EC50 | plaque count | AD169 | 0.0051 µM |
| OC[C@H]1O[C@@H](n2c(Br)nc3cc(Cl)c(Cl)cc32)[C@H](O)[C@@H]1O | HFF | EC50 | plaque count | C8706/13-1-1 (drug-resistant) | 1.3 µM |
| NC(=O)c1c(Cl)c(-c2cccnc2)n2c1CCCC2 | HEL | EC50 | plaque count | LY9725 (ganciclovir-resistant) | 0.0051 µM |
| CC(C)Nc1nc2cc(Cl)c(Cl)cc2n1[C@H]1O[C@@H](CO)[C@H](O)[C@@H]1O | HFF | EC90 | virus yield | 2916 (bdcrb maribavir-resistant) | 57 µM |
| O[C@@H]1[C@H](O)[C@H](O)CO[C@H]1n1c(Br)nc2cc(Cl)c(Cl)cc21 | HFF | EC50 | plaque count | C9209/1-4-4 drug-resistant | 3.5 µM |

The last 4 rows once more:

structure,cell line,measure,method,strain,value
OC[C@H]1O[C@@H](n2c(Br)nc3cc(Cl)c(Cl)cc32)[C@H](O)[C@@H]1O,HFF,EC50,plaque count,C8706/13-1-1 (drug-resistant),1.3 µM
NC(=O)c1c(Cl)c(-c2cccnc2)n2c1CCCC2,HEL,EC50,plaque count,LY9725 (ganciclovir-resistant),0.0051 µM
CC(C)Nc1nc2cc(Cl)c(Cl)cc2n1[C@H]1O[C@@H](CO)[C@H](O)[C@@H]1O,HFF,EC90,virus yield,2916 (bdcrb maribavir-resistant),57 µM
O[C@@H]1[C@H](O)[C@H](O)CO[C@H]1n1c(Br)nc2cc(Cl)c(Cl)cc21,HFF,EC50,plaque count,C9209/1-4-4 drug-resistant,3.5 µM

ECn is the concentration giving n% inhibition of infection, replication or growth. Rows are shuffled and stem from different studies.